Record: PubChem BioAssay AID1224833 (University of Georgia, 2016)
Assay: 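Host factors restraining rotavirus as candidate antiviral genes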 (primary screen). Cells: monkey MA104 kidney cells. Reagents: siRNA pool against human genes, 50 nM. Time to read-out: 48 h knock-down before infection; read 24 h after infection. Conditions: infection with rotavirus strain RV3 two days after transfection; infectious dose for this stage not given. Measurement: 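z-score of rotavirus antigen signal per well, from a fluorescent immunoassay, relative to non-targeting control wells on the same plate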. Scale: z-score vs non-targeting control: higher = more rotavirus replication than with non-targeting control. Active means: In these data the active calls have z-score vs non-targeting control at about -1 or lower, or at about 1 or higher. Meaning of the calls: active = z-score beyond 1 either way; inactive = z-score within 1 of zero.
Shown is an unselected part of about 12,000 reagents. About 5,600 of all reagents (46%) count as active. 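Active calls cover z-scores past 1 in both directions, so they include lowered as well as raised rotavirus replication.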 No sequences are given here.

With RFX2, how do the results read?
z-score vs non-targeting control: 0.804; Outcome: inactive

For DPAGT1, what does the deposit list?
z-score vs non-targeting control: -1.3; Outcome: active

How did the screen score KRT71?
z-score vs non-targeting control: -2.98; Outcome: active

Which result is listed for CLDN4?
z-score vs non-targeting control: -0.813; Outcome: inactive

Which result is listed for DBR1?
z-score vs non-targeting control: -0.888; Outcome: inactive

What is on record for SIRPD?
z-score vs non-targeting control: 1.83; Outcome: active

How did the screen score C1QTNF3?
z-score vs non-targeting control: -1.76; Outcome: active

How did the screen score ANKRD10?
z-score vs non-targeting control: -1.21; Outcome: active

How did the screen score FUT7?
z-score vs non-targeting control: -2.48; Outcome: active

How did the screen score TGM7?
z-score vs non-targeting control: -1.47; Outcome: active

For ZBTB20, what does the deposit list?
z-score vs non-targeting control: -0.165; Outcome: inactive

What did the screen give for SFTPA1?
z-score vs non-targeting control: -0.292; Outcome: inactive

With COL4A3, what was measured?
z-score vs non-targeting control: -1.09; Outcome: active

How did the screen score ATG14?
z-score vs non-targeting control: 0.311; Outcome: inactive

For NAA25, what does the deposit list?
z-score vs non-targeting control: 0.921; Outcome: inactive

For RAB11FIP3, what does the deposit list?
z-score vs non-targeting control: 0.402; Outcome: inactive

Which result is listed for FCRL3?
z-score vs non-targeting control: 1.09; Outcome: active

For CIB1, how do the results read?
z-score vs non-targeting control: -0.777; Outcome: inactive

With ICAM4, how do the results read?
z-score vs non-targeting control: -0.265; Outcome: inactive

How did the screen score PIP?
z-score vs non-targeting control: -0.153; Outcome: inactive

What is on record for DFFA?
z-score vs non-targeting control: 2.07; Outcome: active

For IL17RA, what does the deposit list?
z-score vs non-targeting control: -1.21; Outcome: active

How did the screen score RECQL?
z-score vs non-targeting control: -1.16; Outcome: active

For DELE1, what does the deposit list?
z-score vs non-targeting control: 0.527; Outcome: inactive

For TRDN, what was measured?
z-score vs non-targeting control: -3.18; Outcome: active

How did the screen score NEMF?
z-score vs non-targeting control: 2.15; Outcome: active

What did the screen give for INTS4?
z-score vs non-targeting control: 1.39; Outcome: active

With RPL36AL, what was measured?
z-score vs non-targeting control: 0.0583; Outcome: inactive

Which result is listed for OR1S2?
z-score vs non-targeting control: 1.35; Outcome: active

How did the screen score ASPNAT?
z-score vs non-targeting control: 1.36; Outcome: active

Which result is listed for KLHL13?
z-score vs non-targeting control: -2.09; Outcome: active

With SMCO4, what was measured?
z-score vs non-targeting control: -1.41; Outcome: active

9 entries from above, arranged by “z-score vs non-targeting control”, descending.
DFFA → z-score vs non-targeting control: 2.07; Outcome: active
FCRL3 → z-score vs non-targeting control: 1.09; Outcome: active
NAA25 → z-score vs non-targeting control: 0.921; Outcome: inactive
RAB11FIP3 → z-score vs non-targeting control: 0.402; Outcome: inactive
ATG14 → z-score vs non-targeting control: 0.311; Outcome: inactive
PIP → z-score vs non-targeting control: -0.153; Outcome: inactive
ICAM4 → z-score vs non-targeting control: -0.265; Outcome: inactive
CIB1 → z-score vs non-targeting control: -0.777; Outcome: inactive
COL4A3 → z-score vs non-targeting control: -1.09; Outcome: active

Next reagents follow:
For GPBP1L1, what was measured?
z-score vs non-targeting control: -0.696; Outcome: inactive

Which result is listed for AKAP5?
z-score vs non-targeting control: -2.57; Outcome: active

What is on record for DVL1?
z-score vs non-targeting control: -0.649; Outcome: inactive

For TEX13A, what was measured?
z-score vs non-targeting control: -0.233; Outcome: inactive

With TMEM183A, how do the results read?
z-score vs non-targeting control: 0.391; Outcome: inactive

What is on record for AQP6?
z-score vs non-targeting control: 1.24; Outcome: active

Which result is listed for ERCC4?
z-score vs non-targeting control: 1.15; Outcome: active

Which result is listed for OR5AC2?
z-score vs non-targeting control: -0.839; Outcome: inactive

With CNKSR1, what was measured?
z-score vs non-targeting control: 1.51; Outcome: active

What is on record for TRAPPC12?
z-score vs non-targeting control: 0.449; Outcome: inactive

For RSL24D1, what does the deposit list?
z-score vs non-targeting control: -0.474; Outcome: inactive

How did the screen score COL15A1?
z-score vs non-targeting control: 0.296; Outcome: inactive

For NDUFS8, how do the results read?
z-score vs non-targeting control: -1.16; Outcome: active

How did the screen score RTP1?
z-score vs non-targeting control: 0.973; Outcome: inactive

Which result is listed for PMS1?
z-score vs non-targeting control: -1.55; Outcome: active

Which result is listed for HEXIM1?
z-score vs non-targeting control: -1.86; Outcome: active

For CERKL, how do the results read?
z-score vs non-targeting control: -1.15; Outcome: active

Which result is listed for ADAMTS13?
z-score vs non-targeting control: 0.723; Outcome: inactive

For ORC6, how do the results read?
z-score vs non-targeting control: -1.08; Outcome: active

For CLN3, what does the deposit list?
z-score vs non-targeting control: 0.392; Outcome: inactive

Which result is listed for ZFR?
z-score vs non-targeting control: 0.915; Outcome: inactive

Which result is listed for DNAJC19?
z-score vs non-targeting control: 1.96; Outcome: active

Which result is listed for CD300LF?
z-score vs non-targeting control: -0.429; Outcome: inactive

Which result is listed for CHRFAM7A?
z-score vs non-targeting control: -1.36; Outcome: active

What is on record for REG1B?
z-score vs non-targeting control: -1.1; Outcome: active

What is on record for OR56B4?
z-score vs non-targeting control: 0.85; Outcome: inactive

What is on record for NMB?
z-score vs non-targeting control: -1.02; Outcome: active

With LAMB4, what was measured?
z-score vs non-targeting control: -0.168; Outcome: inactive
